PubChem BioAssay AID504761 – Drosophila RNAi Screening Center | 2011

- Assay: 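Insect host genes that dengue virus relies on to spread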 (primary screen)
- Cell system: D.Mel-2 cells from Drosophila
- Reagent: long dsRNA against Drosophila genes
- Treatment: infection with dengue virus type 2; dose and infection time not stated
- Measurement: 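Cells stained for dengue envelope protein and imaged; percent of infected cells per well on duplicate plates, ranked by infection, with stained nuclei counted for cell number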
- Reading the numbers: infection score: higher = more virus-infected cells; cell count: higher = more cells in the well
- Active means: 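Very low infection ranking in both replicate wells (chance probability at most 0.065), then a retest showing infection dropped 1.5-fold or more at p below 0.05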
- Meaning of the calls: active = confirmed: knock-down lowers infection; inactive = not picked or not confirmed
The deposit covers about 22,000 reagents; below is an unselected part of those that have a named target and a result. Of all reagents, 116 (0.52%) got an active call. 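Calls depend on retest data that are not deposited; infection was ranked per plate without normalising between plates; the unit of the infection score is not given.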 Raw values vary from plate to plate and are shown uncorrected. A plus sign joins genes that one reagent is predicted to hit. Not all columns of the deposit are shown. Not given: the amount of reagent, the time to read-out.

Gene | dsRNA | infection score, replicate 1 | infection score, replicate 2 | cell count, replicate 1 | Outcome
ssp6 | DRSC08791 | 6.01 | 2.23 | 5262 | inactive
ssp6 | DRSC10677 | 4.06 | 2.2 | 6249 | inactive
ssp6 | DRSC27709 | 8.5 | 12.8 | 6801 | inactive
Cpr57A + Obp57d | DRSC06708 | 10.2 | 16.8 | 5947 | inactive
Cpr57A + Obp57d | DRSC22719 | 4.88 | 3.03 | 6967 | inactive
CCHa2 | DRSC14835 | 3.74 | 10.5 | 6419 | inactive
Or7a | DRSC18691 | 6.83 | 5.54 | 6606 | inactive
CG3760 | DRSC04415 | 1.44 | 3.4 | 6192 | inactive
mRpL1 | DRSC16251 | 9.09 | 9.97 | 5390 | inactive
CG3420 | DRSC04995 | 11.9 | 13.5 | 6017 | inactive
Mtap | DRSC06890 | 4.2 | 5.16 | 7220 | inactive
Pcmt | DRSC12363 | 16.6 | 12.2 | 5384 | inactive
ND-B22 | DRSC03193 | 11.5 | 7.6 | 5590 | inactive
ND-B22 | DRSC28526 | 0.24 | 31.5 | 425 | inactive
lncRNA:iab4 | DRSC22331 | 3.16 | 4.07 | 5979 | inactive
lncRNA:iab4 | DRSC26703 | 1.82 | 4.54 | 6194 | inactive
CG3880 | DRSC04428 | 20 | 10.8 | 5627 | inactive
CG3880 | DRSC21404 | 1.42 | 7.04 | 5900 | inactive
CG3880 | DRSC27449 | 14.4 | 15.5 | 6994 | inactive
Jon99Cii | DRSC16858 | 7.9 | – | 6559 | inactive
Jon99Cii | DRSC22574 | 18.7 | 3.43 | 5821 | inactive
l(3)72Dn | DRSC10468 | 6.05 | 12.2 | 3093 | inactive
tsu | DRSC07265 | 2.28 | 5.55 | 6531 | inactive
CG11693 | DRSC14353 | 5.68 | 5.28 | 6475 | inactive
CG11693 | DRSC28503 | 18 | 2.13 | 5755 | inactive
RpS20 | DRSC16836 | 1.66 | 18 | 6139 | inactive
GXIVsPLA2 | DRSC10243 | 8.67 | 6.21 | 5340 | inactive
GXIVsPLA2 | DRSC29361 | 18.6 | 17.4 | 4029 | inactive
ETHR | DRSC15915 | 16.7 | 8.91 | 6205 | inactive
ETHR | DRSC29606 | – | 13.7 | 325 | inactive
CG2116 | DRSC18206 | 11.1 | 5.05 | 6418 | inactive
CG2116 | DRSC24617 | 5.22 | 3.13 | 6054 | inactive
CG4293 | DRSC18557 | 11.8 | 5.68 | 6785 | inactive
Prim2 | DRSC11610 | 23.1 | 30.1 | 2556 | inactive
Uvrag | DRSC02932 | 8.72 | 28.7 | 6470 | inactive
CG9521 | DRSC20196 | – | 0.23 | 435 | inactive
morgue | DRSC00264 | 6.56 | 26.2 | 6208 | inactive
CG13123 | DRSC02219 | 2.25 | 5.65 | 6124 | inactive
CG12964 | DRSC23210 | 0.05 | 1.34 | 6429 | active
CG12964 | DRSC29427 | 8.34 | 14.1 | 5169 | inactive
sunz | DRSC12559 | 25.4 | 4.83 | 5636 | inactive
Las | DRSC11772 | 6.4 | 31.3 | 844 | inactive
Las | DRSC26539 | 10.7 | 13.6 | 6137 | inactive
CG30008 | DRSC21576 | 1.94 | 20.2 | 5610 | inactive
CG30008 | DRSC27726 | 12.9 | 34.8 | 6589 | inactive
CG4372 | DRSC04466 | 9.72 | 8.09 | 6833 | inactive
pinta | DRSC14698 | 9.1 | 1.48 | 6099 | inactive
SF1 | DRSC16844 | 18.4 | 1.92 | 4059 | inactive
Osi19 | DRSC12569 | 3.34 | 4.13 | 6446 | inactive
Tl | DRSC16885 | 1.65 | 6.95 | 6011 | inactive
FER | DRSC12735 | 0.23 | 0.65 | 5964 | inactive
FER | DRSC16673 | 0.9 | 6.19 | 7254 | inactive
FER | DRSC29894 | 7.11 | 11.4 | 6149 | inactive
Ser | DRSC16856 | 5.68 | 10.5 | 6334 | inactive
Ser | DRSC25494 | 1.74 | 2.39 | 6498 | inactive
CG32633 | DRSC18987 | 3.94 | 5.4 | 5889 | inactive
Spn38F | DRSC03616 | 2.47 | 1.57 | 6426 | inactive
Spn38F | DRSC24629 | 6.5 | 5.8 | 5982 | inactive

6 of these entries, set out differently.
Gene	dsRNA	infection score, replicate 1	infection score, replicate 2	cell count, replicate 1	Outcome
l(3)72Dn	DRSC10468	6.05	12.2	3093	inactive
tsu	DRSC07265	2.28	5.55	6531	inactive
CG11693	DRSC14353	5.68	5.28	6475	inactive
CG11693	DRSC28503	18	2.13	5755	inactive
RpS20	DRSC16836	1.66	18	6139	inactive
GXIVsPLA2	DRSC10243	8.67	6.21	5340	inactive
